# According to patent publication US7601358B2, “Mycobacterium tuberculosis protein composition” (priority 2006, dated 2009):
# B1: DesA3: Mycobacterium tuberculosis desaturase DesA3 (Rv3229c), SEQ ID NO: 10 (protein, listed as Mycobacterium tuberculosis)
# chain: MAITDVDVFAHLTDADIENLAAELDAIRRDVEESRGERDARYIRRTIAAQRALEVSGRLLLAGSSRRLAWWTGALTLGVAKIIENMEIGHNVMHGQWDWMNDPEIHSSTWEWDMSGSSKHWRYTHNFVHHKYTNILGMDDDVGYGMLRVTRDQRWKRYNIFNVVWNTILAIGFEWGVALQHLEIGKIFKGRADREAAKTRLREFSAKAGRQVFKDYVAFPALTSLSPGATYRSTLTANVVANVIRNVWSNAVIFCGHFPDGAEKFTKTDMIGEPKGQWYLRQMLGSANFNAGPALRFMSGNLCHQIEHHLYPDLPSNRLHEISVRVREVCDRYDLPYTTGSFLVQYGKTWRTLAKLSLPDKYLRDNADDAPETRSERMFAGLGPGFAGADPVTGRRRGLKTAIAAVRGRRRSKRMAKSVTEPDDLAAKLHHHHHH
# System: OLE1 deficient yeast strain L8-14C
# Type: cell-based, Saccharomyces cerevisiae
# Conditions: OLE1 deficient yeast L8-14C, galactose medium, absence of unsaturated fatty acids; plus grades not defined
molecule,measurement,value
B1,In vivo activity,None without Rv32320c
